# System: Primary normal human lung fibroblasts (NHLFs)
# Test: Drug cytotoxicity assay (MTT)
# Conditions: NHLF IC50 vs P. falciparum IC50
structure (smiles),measurement,value
CCNC(=O)c1noc(-c2cc(C(C)C)c(O)cc2O)c1-c1ccc(CN2CCOCC2)cc1 [NVP-AUY922],difference between the parasite and host IC50s,> 130 fold

# From publication PMC5518105, “Identification and characterization of the antiplasmodial activity of Hsp90 inhibitors” (Malaria Journal, 2017)
